Measured values: patent US6716836B2, “Non-nucleoside reverse transcriptase inhibitors” (Boehringer Ingelheim (Canada) Ltd., priority 2001, dated 2004)
pEC50, pIC50: −log10 of the molar value.

Tests used:
[1] = molecular target: HIV-1 RT wild type (WT) (Human immunodeficiency virus type 1 group M subtype B, UniProt P04585); test: Reverse Transcriptase (RT) assay, wild type enzyme; format: biochemical; conditions: read-out: IC50 WT RT
Text: (§1) Among the enzymes for which Human Immunodeficiency Virus (HIV-1) encodes is a reverse transcriptase (1), so-named because it transcribes a DNA copy from an RNA template. This activity can be quantitatively measured in a cell-free enzyme assay, which has been previously described (2), and is based upon the observation that reverse transcriptase is able to use a synthetic template poly r(C) primed with oligo d(G) to transcribe a radio-labelled, acid-precipitable DNA strand utilising ^3H-dGTP as a substrate. The assay described below utilises the wild type (WT) enzyme, which is the predominant form of the enzyme observed with patients infected with HIV-1. Utilisation of mutant RT enzymes (for example, Y181C, prepared by site-directed mutagenesis in which the tyrosine residue at codon 181 has been replaced by a cysteine residue, or the mutants K103N, V106A and Y188C) and analogous assay conditions allows compounds to be evaluated for their effectiveness at inhibiting the mutant enzymes.
(§2) The HIV-1 RT expression clone, pKRT2, was obtained from Yale University (3). An overnight culture, grown in 2×YT medium (37° C., 225 rpm) (4), supplemented with 100 μg/mL ampicillin for positive selection was used to inoculate the 2×YT medium. The culture was incubated (37° C., 225 rpm) until it reached an OD600 of 0.6-0.9. […]

[2] = test system: HIV replication in T-lymphocytes, virus coding for wild type enzyme; test: ELISA (p24) assay for activity in cell culture, wild type virus; format: cell-based; conditions: read-out: EC50 WT RT
Experimental: (§3) ELISA Assay for Assessment of Activity in Cell Culture
(§4) Compounds of the invention were tested for their ability to inhibit HIV replication in cell culture. Viruses coding for Wild type and mutant enzymes were used. T-lymphocytes were infected with the virus, infected cells were incubated in the presence of varying amounts of compounds of the invention, and an ELISA assay for the viral protein p24 was used to quantify viral replication. Table 9 lists the results as EC50 (nM).

[3] = molecular target: HIV-1 RT double mutant K103N/Y181C (Human immunodeficiency virus type 1 group M subtype B, UniProt P04585, K690N/Y768C); test: Reverse Transcriptase (RT) assay, double mutant enzyme; format: biochemical; conditions: read-out: IC50 K103N/Y181C
Text: as §1, §2

[4] = test system: HIV replication in T-lymphocytes, virus coding for mutant enzyme K103N/Y181C; test: ELISA (p24) assay for activity in cell culture, mutant virus; format: cell-based; conditions: read-out: EC50 K103N/Y181C
Experimental: as §3, §4

CCN1c2ncc(CCOc3cccc4c3CCS(=O)(=O)N4CCC(C)(C)C(=O)O)cc2C(=O)N(C)c2cccnc21
> 7.00: pIC50 [1] | pEC50 [2] | pIC50 [3] | pEC50 [4]
